## Share of PSTVd loop 15 variants by leaf site

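Three N. benthamiana plants were inoculated with the whole mutant pool. Samples came from the inoculated region at 5 days, the leaf margin at 10 and upper systemic leaves at 12.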

PSTVd intermediate strain, loop 15: wild type GGAAACCGCUACUAC, pool pattern GGAAACCGNNNNNNC; upper and lower strand joined, each 5' to 3', the first 7 letters being the upper strand, closing pairs included.

Numbers give reads per thousand; 0 = not seen among the reads, higher = more abundant. Each site shows the three plants. "Pool" is the share in the plasmid pool used as inoculum, on the same scale. The inoculated region was read from the minus strand, the other sites from the plus strand. IR is the inoculated region, LM the leaf margin, Sys the systemic leaves. Sequences that differ at fixed positions probably stem from PCR or sequencing errors, and defective variants can be carried along by functional ones. Samples held 43,870 to 66,106 reads, so the smallest values rest on one or two reads. Wild type was 33.9 per thousand in the pool and the most common sequence in every sample (inoculated region 202, 200, 159; leaf margin 724, 746, 710; systemic leaves 856, 883, 880).

GGAAACCGCGGAUUC (pool 0.272) read IR 0.360 / 0.305 / 0.457; LM 0.0970 / 0.0223 / 0.240; Sys 0.0322 / 0 / 0. GGAAACCGUGCCGCC (pool 0.208) gave IR 0.131 / 0.0803 / 0.114; LM 0.0162 / 0 / 0.0200; Sys 0 / 0 / 0. With GGAAACCGGGGCAAC (pool 0.208) the assay gave IR 0.0655 / 0.129 / 0.0762; LM 0 / 0 / 0.0200; Sys 0 / 0 / 0. With GGAAACCGUGGCUGC (pool 0.272) the assay gave IR 0.0655 / 0.0803 / 0.0952; LM 0 / 0 / 0.0200; Sys 0 / 0 / 0. With GGAAACCGCACUUUC (pool 0.176) the assay gave IR 0.131 / 0.0964 / 0.0952; LM 0.0162 / 0.0223 / 0; Sys 0 / 0 / 0. GGAAACCGGCCUGAC (pool 0.336) read IR 0.147 / 0.112 / 0.152; LM 0.0323 / 0 / 0; Sys 0 / 0 / 0. GGAAACCGUUGACGC (pool 0.240) read IR 0.0983 / 0.129 / 0.171; LM 0 / 0 / 0.0601; Sys 0.0161 / 0 / 0.0228.

For GGAAACCGUCUGGAC (pool 0.144) the result was IR 0.278 / 0.321 / 0.209; LM 0.0162 / 0 / 0.0200; Sys 0.0161 / 0 / 0. GGAAACCGGCGUGUC (pool 0.320) read IR 0.0655 / 0.0964 / 0.114; LM 0.0323 / 0 / 0.0200; Sys 0 / 0 / 0. GGAAACCGAGUCAGC (pool 0.160) read IR 0.131 / 0.0482 / 0.0952; LM 0 / 0 / 0.0200; Sys 0 / 0 / 0. GGAAACCGUUAUAUC (pool 0.192) read IR 0.475 / 0.321 / 0.381; LM 0.146 / 0 / 0.100; Sys 0.0483 / 0.0605 / 0.0456. For GGAAACCGUAGAAGC (pool 0.208) the result was IR 0.0164 / 0.0482 / 0.0190; LM 0.0162 / 0 / 0; Sys 0 / 0 / 0. GGAAACCGCGACUUC (pool 0.288) gave IR 0.426 / 0.257 / 0.457; LM 0.0970 / 0.0445 / 0.160; Sys 0 / 0.0151 / 0.137. For GGAAACCGGACUCAC (pool 0.208) the result was IR 0.0819 / 0.129 / 0.209; LM 0 / 0.557 / 0.0601; Sys 0 / 0 / 0.

For GGAAACCGGCGGAGC (pool 0.272) the result was IR 0.115 / 0.161 / 0.152; LM 0 / 0.0223 / 0; Sys 0.0161 / 0 / 0. GGAAACCGACCCGUC (pool 0.288) read IR 0.0655 / 0.145 / 0.0952; LM 0.0162 / 0 / 0.0200; Sys 0 / 0 / 0. With GGAAACCGGAACAAC (pool 0.224) the assay gave IR 0.262 / 0.0964 / 0.133; LM 0.0162 / 0 / 0; Sys 0 / 0 / 0. With GGAAACCGGGCCAUC (pool 0.192) the assay gave IR 0.0819 / 0.0803 / 0.0571; LM 0 / 0.0445 / 0; Sys 0 / 0 / 0. GGAAACCGUUCUUCC (pool 0.208) gave IR 0.0819 / 0.0964 / 0.171; LM 0.0162 / 0.0445 / 0; Sys 0 / 0 / 0. GGAAACCGAUUCACC (pool 0.256) read IR 0.0819 / 0.177 / 0.152; LM 0.0162 / 0 / 0.0401; Sys 0 / 0 / 0. For GGAAACCGGCUCAAC (pool 0.160) the result was IR 0.0983 / 0.0803 / 0.114; LM 0 / 0.0223 / 0; Sys 0 / 0 / 0.

GGAAACCGUUAUCGC (pool 0.352) gave IR 0.278 / 0.305 / 0.438; LM 0.0970 / 0.223 / 0.120; Sys 0.0161 / 0 / 0. For GGAAACCGUCCCCUC (pool 0.160) the result was IR 0.246 / 0.0964 / 0.0952; LM 0.0323 / 0 / 0; Sys 0 / 0 / 0. For GGAAACCGCUUCCGC (pool 0.208) the result was IR 0.0655 / 0.145 / 0.171; LM 0.0162 / 0.0223 / 0.0200; Sys 0 / 0 / 0. With GGAAACCGAAACCAC (pool 0.240) the assay gave IR 0.459 / 0.402 / 0.457; LM 0.0647 / 0.111 / 0.0801; Sys 0.0161 / 0.0151 / 0.0456. GGAAACCGACGCGAC (pool 0.176) read IR 0.164 / 0.0964 / 0.0952; LM 0 / 0 / 0.0401; Sys 0 / 0 / 0. For GGAAACCGCGUAGAC (pool 0.240) the result was IR 0.0983 / 0.0643 / 0.0952; LM 0 / 0 / 0; Sys 0 / 0 / 0. For GGAAACCGCCGUUCC (pool 0.128) the result was IR 0.0819 / 0.0964 / 0.152; LM 0 / 0 / 0.0200; Sys 0 / 0 / 0.

For GGAAACCGCAAGAUC (pool 0.160) the result was IR 0.278 / 0.337 / 0.248; LM 0.0970 / 0.156 / 0.120; Sys 0.0966 / 0 / 0.

2 of these entries, quoted again:

For GGAAACCGCAAGAUC (pool 0.160) the result was IR 0.278 / 0.337 / 0.248; LM 0.0970 / 0.156 / 0.120; Sys 0.0966 / 0 / 0.
For GGAAACCGGAACAAC (pool 0.224) the result was IR 0.262 / 0.0964 / 0.133; LM 0.0162 / 0 / 0; Sys 0 / 0 / 0.

The measurements come from Wu et al. 2024 (doi:10.1371/journal.ppat.1012142).